Results on five molecules are retold here after the supplement of paper PMC9931576.

Human monoclonal antibodies against the spike receptor-binding domain (heavy:light variable regions). IC50 against pseudoviruses bearing the spike of naturally observed variants; lower = stronger; >10 µg/ml means not reached at the top dose. No active / inactive call. The stated detection limit is 0.0005 µg/ml; values near or below 0.001 µg/ml lie at the floor of the assay.

The chains are these.
B1: BD58-0495 (protein)
chain 1: EMQLVESGGGLVQPGRSLRLSCAASGFTFDDFAVHWVRQAPGKGLEWVSGISWNSGDLGYADSVKGRVTISRDNAKKSLYLQMNSLRAEDTALYYCAKGMTGDLEFDAFDIWGQGTMVTVSS
chain 2: DIQMTQSPSSLSASVGDRVTFTCRASQNIANYLNWYQQKPGKAPKLLIYAASILQSGVPPRFSGSGSGTDFTLTISSLQPEDFATYYCQQSFNTLPFGQGTKVEVK
B2: BD58-0462 (protein)
chain 1: EVQLVESGGGLVQPGGSLRLSCAASGFTVSSNYMNWVRQAPGKGLEWVSIIYSGGSTNYADSLKGRFTISRDNSKNTLYLQMNSLRAEDTAVYYCARENQWFGEADYGMDVWGQGTTVTVSS
chain 2: QSVLTQPPSVSGAPGQRVTISCTGSSSNIGADYDVHWYQHLPGTAPKLLIYGNNNRPSGVPDRFSGSKSGASASLAITGLQAEDEADYYCQSYDNSLSGSKVFGGGTKLTVL
B3: BD58-0474 (protein)
chain 1: QVQLVQSGAEVKKPGASVKVSCKASGYTFTSYYIHWVRQAPGQGLEWMGIINPSGGYTTYAQKFQGRVTMTRDTSTSTVYMELSSLRSEDTAVYYCAREYYDLLTGYYHWFDPWGQGTLVTVSS
chain 2: QSVLTQPPSVSGAPGQRVTISCTGRSSNIGADYDVHWYQQLPGTAPKLLIYANSNRPSGVPDRFSGSKSGASASLAITGLQAEDEADYYCQSYDSSLSGSYVFGTGTKVTVL
B4: BD58-0472 (protein)
chain 1: EVQLVESGGGLVQPGRSLRLSCAASRFSFEDYAMHWVRQAPGKGLEWVSGITWNSDTIAYADSVKGRFTISRDNAKNSLYLQMNSLRPEDTALYYCAKENSSLKNWGQGTLVTVSS
chain 2: QPVLTQPPSASASLGASVTLTCTLSSGYSNYKVDWYQQRPGKGPRFVMRVGTGGIVGSKGDGIPDRFSVLGSGLNRYLTIKNIQEEDESEYHCGADHGSGSNFVWVFGGGTKLTVL
B5: BD56-280 (protein)
chain 1: QVTLRESGPALVKPTQTLTLTCTFSGFSLTTTGMCVSWIRQPPGKALEWLALIDWDDDKYYSTSLKTRLTISKDTSKNQVVLTMTNMDPVDTATYYCARTRGEGAESGFYGMDVWGQGTTVTVSS
chain 2: SYELTQPPSVSVSPGQTARITCSGDTLPNQYAYWYQQKSGQAPVLLIYKDSERPSGIPERFSGSSSGTTVTLTISGVQAEDEADYYCQSADSSGTYQVVFGGGTKLTVL

One test addresses SARS-CoV-2 Omicron BA.1 spike pseudovirus. The test is described as follows: pseudovirus neutralization IC50; higher = weaker neutralization. As to the method:
(§1)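 Single-round VSV luciferase pseudovirus mixed with antibody dilutions for 1 h and put on Huh-7 cells for about a day; IC50 from the dose curve.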
As to B1, the “pseudovirus neutralization IC50” value came out at 0.169 mg/L.
Still for that read-out and setting: as for B2, the figure is above 10 mg/L; as for B3, 0.122 mg/L; as for B4, 0.0289 mg/L.
In the case of B5, the “pseudovirus neutralization IC50” value was 0.329 mg/L.

A further test deals with SARS-CoV-2 Omicron BA.2 spike pseudovirus. The description is as above. As to the method:
as §1
As for B1, the “pseudovirus neutralization IC50” value came to 0.102 mg/L.
Still for that read-out and setting: as for B2, the figure is 0.0757 mg/L; as for B3, 0.124 mg/L; as for B4, 0.0387 mg/L.
On the same count and under the same terms, as for B5, the figure is 0.99 mg/L.

A further test deals with SARS-CoV-2 Omicron BA.2.75 spike pseudovirus. Described as above. As to the method: as §1
On to B1, for which the “pseudovirus neutralization IC50” value was above 10 mg/L.
The same measure, in the same setting: the same measure for B2: above 10 mg/L; for B3: above 10 mg/L.
Still for that read-out and setting: the same measure for B4: 0.494 mg/L; for B5: above 10 mg/L.

The next test deals with SARS-CoV-2 Omicron BA.2.75.2 spike pseudovirus. Described as above. As to the method:
as §1
B1: the “pseudovirus neutralization IC50” value is above 10 mg/L.
On the same count and under the same terms, as for B2, the figure is above 10 mg/L.
For the molecule B3, the “pseudovirus neutralization IC50” value is above 10 mg/L.
Take B4: the “pseudovirus neutralization IC50” value is above 10 mg/L.
Turning to B5, the “pseudovirus neutralization IC50” value was above 10 mg/L.

A further test concerns the target SARS-CoV-2 Omicron BA.5 spike pseudovirus. The description is as above. As to the method:
as §1
In the case of B1, the “pseudovirus neutralization IC50” value came out at 1.5 mg/L.
The same measure, in the same setting: as for B2, the figure is above 10 mg/L; as for B3, above 10 mg/L.
On to B4, for which the “pseudovirus neutralization IC50” value was above 10 mg/L.
Same read-out and setting: the same measure for B5: above 10 mg/L.

A further test addresses SARS-CoV-2 Omicron BM.1.1.1 spike pseudovirus. Described as above. As to the method: as §1
On to B1, for which the “pseudovirus neutralization IC50” value is above 10 mg/L.
As for B2, the “pseudovirus neutralization IC50” value is above 10 mg/L.
Consider B3, for which the “pseudovirus neutralization IC50” value is above 10 mg/L.
On the same count and under the same terms, as for B4, the figure is above 10 mg/L; as for B5, above 10 mg/L.

The next test deals with SARS-CoV-2 Omicron BQ.1.1 spike pseudovirus. The description is as above. As to the method:
as §1
As for B1, the “pseudovirus neutralization IC50” value is above 10 mg/L.
The same measure, in the same setting: as for B2, the figure is above 10 mg/L.
The same measure, in the same setting: as for B3, the figure is above 10 mg/L; as for B4, above 10 mg/L.
Still for that read-out and setting: the same measure for B5: above 10 mg/L.

The next test has as its target SARS-CoV-2 Omicron BR.2 spike pseudovirus. Described as above. As to the method:
as §1
For the molecule B1, the “pseudovirus neutralization IC50” value was above 10 mg/L.
The same measure, in the same setting: as for B2, the figure is above 10 mg/L; as for B3, above 10 mg/L.
On the same count and under the same terms, as for B4, the figure is above 10 mg/L; as for B5, above 10 mg/L.

Another test addresses SARS-CoV-2 Omicron CA.1 spike pseudovirus. The test is described as above. As to the method: as §1
Turning to B1, the “pseudovirus neutralization IC50” value was above 10 mg/L.
The same measure, in the same setting: the same measure for B2: above 10 mg/L; for B3: above 10 mg/L; for B4: above 10 mg/L.
On to B5, for which the “pseudovirus neutralization IC50” value is above 10 mg/L.

The next test concerns the target SARS-CoV-2 Omicron XBB spike pseudovirus. The test is described as above. As to the method:
as §1
Take B1: the “pseudovirus neutralization IC50” value is above 10 mg/L.
On the same count and under the same terms, as for B2, the figure is above 10 mg/L.
Same read-out and setting: the same measure for B3: above 10 mg/L; for B4: above 10 mg/L; for B5: above 10 mg/L.

Another test concerns the target SARS-CoV-2 early D614G spike pseudovirus. The test is described as above. As to the method: as §1
As to B1, the “pseudovirus neutralization IC50” value was above 10 mg/L.
On the same count and under the same terms, as for B2, the figure is above 10 mg/L; as for B3, above 10 mg/L.
Same read-out and setting: as for B4, the figure is above 10 mg/L; as for B5, above 10 mg/L.
